# Entries after “also recorded” stand apart in the source; their conditions may differ.
# Experiments:
# SARS-CoV-2 3CL^pro [1] = target: T1, SARS-CoV-2 3CL^pro (Severe acute respiratory syndrome coronavirus 2, UniProt P0DTD1); experiment: 3CL^pro proteolytic activity assay (FRET peptide substrate); format: biochemical
# SARS-CoV-2 3CL^pro [2] = target: T1, SARS-CoV-2 3CL^pro; experiment: Surface plasmon resonance (SPR) binding to biotinylated 3CL^pro; conditions: SPR at 10 °C; concentration ranges of up to 100 uM
# SARS-CoV-2 PL^pro = SARS-CoV-2 PL^pro (Severe acute respiratory syndrome coronavirus 2, UniProt P0DTD1)
smiles,measurement,setting,value
NC(N)=Nc1nc(CSCCC(N)=NS(N)(=O)=O)cs1 [Famotidine],inhibition of 3CL^pro activity (in words),SARS-CoV-2 3CL^pro [1],did not inhibit 3CL^pro activity
same,binding to 3CL^pro by SPR (in words),SARS-CoV-2 3CL^pro [2],No binding was detected; also recorded: not found to interact
same,inhibition of PL^pro proteolytic activity (in words),SARS-CoV-2 PL^pro,no reduction in PL^pro activity

# From publication PMC7940615 (Scientific Reports, 2021)
